Results of unrelated studies side by side (data: NIAID ChemDB).

All rows: whole-cell or culture tests; agent: Candida albicans; endpoint: MIC

Conditions beyond the fields shown may differ between rows. a–b is a range or a potency band. Blank or dashed fields: not listed here.

compound | conditions | strain or isolate | value
Clc1ccc(CCC(Cn2ccnc2)Sc2c(Cl)cccc2Cl)cc1 | - | ATCC 10231 | 30 µg/mL
COc1cc(OC)cc(C(=O)Nc2cc(Cl)ccc2O)c1 | - | - | 25 µg/mL
O=C1CCC(c2ccc(Oc3ccccc3)cc2)=NN1Cc1n[nH]c(=S)n1-c1ccc(Br)cc1 | - | - | 12 µg/mL
CCCCCCn1c(-c2ccc([N+](=O)[O-])cc2)cc(C(=O)N(CCO)CCO)c1C | - | 20 strains | >200 µg/mL
Clc1ccc(CO/N=C(/Cn2ccnc2)c2ccc(Cl)cc2Cl)c(Cl)c1 | - | - | 6.25 µg/mL
Cc1c(C(=O)N2CCN(C)CC2)cc(-c2ccc([N+](=O)[O-])cc2)n1-c1ccccc1Cl | - | 20 strains | >200 µg/mL
O=C1CCC(c2ccccc2)=NN1Cc1n[nH]c(=S)n1-c1ccccc1 | - | - | 4 µg/mL
O=Cc1cc(-c2c(Cl)cccc2Cl)no1 | - | - | 25 µg/mL
C[C@H]1[C@H](O)[C@@H](C)/C=C/C=C/C=C/C=C/C=C/C=C/C=C/[C@H](O[C@@H]2O[C@H](C)[C@@H](O)[C@H](N)[C@@H]2O)C[C@@H]2O[C@](O)(C[C@@H](O)C[C@@H](O)CC[C@H](O)[C@@H](O)C[C@@H](O)CC(=O)O[C@H]1C)C[C@H](O)[C@H]2C(=O)O | - | - | 5 µg/mL
CC(C)[C@](C)(O)[C@](O)(Cn1cncn1)c1ccc(Cl)cc1Cl | - | KE-2 | >100 µg/mL
Clc1ccccc1C(c1ccccc1)(c1ccccc1)n1ccnc1 | 18 h | Clinical isolates | 2 µg/mL
Cc1ccc(C(=O)Nc2ccccc2O)cc1 | - | - | 12.5 µg/mL
Cc1ccc(C2=NN(Cc3n[nH]c(=S)n3-c3ccc(Br)cc3)C(=O)CC2)cc1 | - | - | 10 µg/mL
Brc1ccc(C=Nc2ccc(C3C=CC=CC=C3)cc2)cc1 | - | ATCC 24433 | >1000 µg/mL
O=C1CCC(c2ccccc2)=NN1Cc1n[nH]c(=S)n1-c1ccc(Cl)cc1 | - | - | 6 µg/mL
C[C@@](O)(c1ccc(F)cc1)[C@](O)(Cn1cncn1)c1ccc(Cl)cc1Cl | - | KE-2 | 100 µg/mL
Cc1onc(-c2ccc(Cl)cc2)c1C=O | - | - | 50 µg/mL
Nc1ccc(C(=O)Nc2ccccc2O)cc1 | - | - | 25 µg/mL
Clc1ccc(CC(Cc2ccc(-c3ccccc3)cc2)n2ccnc2)c(Cl)c1 | - | - | 8 µM
C1C2CC3CC1CC(C2)C3Nc1nnc(C2C3CC4CC(C3)CC2C4)s1 | - | IFO 0583 | 2 µg/mL
Nc1ccc(-c2nc3ccccc3o2)cc1 | - | - | 25 µg/mL
Cc1ccc(C2=NN(Cc3n[nH]c(=S)n3-c3ccccc3)C(=O)CC2)cc1 | - | - | 7 µg/mL
Cc1ccc(O)c(NC(=O)c2ccc(C(C)(C)C)cc2)c1 | - | - | 25 µg/mL
COc1cc(O)c2c(c1)C(=O)c1c(cc3c(c1O)-c1c(cc(C)c(C(=O)N[C@H](C)C(=O)O)c1O)[C@H](O[C@@H]1O[C@H](C)[C@H](O)[C@H](O[C@@H]4OC[C@@H](O)[C@H](O)[C@H]4O)[C@H]1O)[C@H]3O)C2=O | - | 5 isolates | 2.5–10 µg/mL
CCC(C(SCCN)c1c(Cl)ccc([N+](=O)[O-])c1Cl)[N+](=O)[O-] | - | - | >1000 µg/mL
COc1ccc(C2=NN(Cc3n[nH]c(=S)n3-c3ccc(Br)cc3)C(=O)CC2)cc1 | - | - | 10 µg/mL
Cc1onc(-c2ccc(Cl)cc2Cl)c1C=O | - | - | 50 µg/mL
C[C@@](O)(c1ccccc1)[C@](O)(Cn1cncn1)c1ccc(Cl)cc1Cl | - | KE-2 | 50 µg/mL
O=Cc1cc(-c2ccc(Cl)cc2)no1 | - | - | 25 µg/mL
CC[C@@]1(O)C[C@H](O[C@H]2C[C@H](N(C)C)[C@H](O[C@H]3C[C@H](O)[C@H](O[C@H]4CCC(=O)[C@H](C)O4)[C@H](C)O3)[C@H](C)O2)c2c(cc3c(c2O)C(=O)c2c(O)cccc2C3=O)[C@H]1C(=O)OC | - | - | 0.2 µg/mL
C[C@@H]1CCC(=O)[C@H](C)[C@@]1(C)CCc1ccc2c(c1)C(=O)C=CC2=O | - | - | 3 µg/mL
Clc1ccc(CN(Cc2ccc(-c3ccccc3)cc2)n2ccnc2)c(Cl)c1 | - | - | 2.5 µM
COc1ccc(CC(Cc2ccc(-c3ccccc3)cc2)n2ccnc2)cc1 | - | - | 33 µM
O=C(Nc1c(F)cccc1F)OCCCN1CCN(c2nc3ccccc3s2)CC1 | - | CY1123 | 1.3 µg/mL
Cc1c(O)cccc1C(=O)N[C@@H](CSc1ccccc1)[C@H](O)CN1C[C@H]2CCCC[C@H]2C[C@H]1C(=O)NC(C)(C)C | - | I182B | 64 µg/mL
CCC(C(SCCN)c1cc([N+](=O)[O-])ccc1Cl)[N+](=O)[O-] | - | - | 100 µg/mL
CC(C)C(=O)C(O)(Cn1cncn1)c1ccc(Cl)cc1 | - | KE-2 | >100 µg/mL
O=Cc1cc(-c2cccc(Cl)c2)no1 | - | - | 50 µg/mL
CC[C@](O)(c1ccc(F)cc1)[C@](O)(Cn1cncn1)c1ccc(Cl)cc1 | - | KE-2 | >100 µg/mL
Clc1cc(Cl)c(OCC#CI)cc1Cl | - | - | 6.25 µg/mL
C[C@H](CCCC(C)(C)N)C1CC[C@@]2(C)C3CC=C4C(C)(C)[C@@H](O)CC[C@]4(C)C3CC[C@]12C | - | IP 1180.79 | 4 µM
CCCCCCCCn1c(-c2ccc([N+](=O)[O-])cc2)cc(C(=O)N(CCO)CCO)c1C | - | 20 strains | >200 µg/mL
CCc1nn(CC(=O)NN)c(=O)n1NCc1ccc(C)cc1 | - | - | 250 µg/mL
C[C@H]1[C@H](O)[C@@H](C)/C=C/C=C/C=C/C=C/C=C/C=C/C=C/[C@H](O[C@@H]2O[C@H](C)[C@@H](O)[C@H](N)[C@@H]2O)C[C@@H]2O[C@](O)(C[C@@H](O)C[C@@H](O)CC[C@H](O)[C@@H](O)C[C@@H](O)CC(=O)O[C@H]1C)C[C@H](O)[C@H]2C(=O)O | - | ATCC 90028 | 0.5 µg/mL
CCC/C=C/C=C/C=C/C(=O)OCC1O[C@@H](OC2C(CO)O[C@]3(OCc4cc(O)cc(O)c43)[C@H](O)[C@H]2OC(=O)/C=C/C=C/CC(O)/C=C/C=C/C=C/CCC)[C@H](O)[C@@H](O)[C@H]1O | - | A9540 | 0.2 µg/mL
Cc1c(C(=O)N(CCO)CCO)cc(-c2ccc([N+](=O)[O-])cc2)n1-c1ccc(Cl)cc1Cl | - | 20 strains | >200 µg/mL
O=C(c1ccc(Cl)cc1)C(O)(Cn1ccnc1)c1ccc(Cl)cc1 | - | KE-2 | 100 µg/mL
Cc1ccc(CC(Cc2ccc(-c3ccccc3)cc2)n2ccnc2)cc1 | - | - | 19 µM
O=Cc1cc(-c2cccc(Br)c2)no1 | - | - | 50 µg/mL
O[C@H](c1ccc(F)cc1)[C@](O)(Cn1cncn1)c1ccc(Cl)cc1 | - | KE-2 | 50 µg/mL
O=C(Cc1ccc([N+](=O)[O-])cc1)Nc1ccccc1O | - | - | 25 µg/mL
O=Cc1cc(-c2ccc([N+](=O)[O-])cc2)no1 | - | - | 50 µg/mL

Again, the opening 5 rows:

Clc1ccc(CCC(Cn2ccnc2)Sc2c(Cl)cccc2Cl)cc1 ; strain or isolate: ATCC 10231 ; value: 30 µg/mL
COc1cc(OC)cc(C(=O)Nc2cc(Cl)ccc2O)c1 ; value: 25 µg/mL
O=C1CCC(c2ccc(Oc3ccccc3)cc2)=NN1Cc1n[nH]c(=S)n1-c1ccc(Br)cc1 ; value: 12 µg/mL
CCCCCCn1c(-c2ccc([N+](=O)[O-])cc2)cc(C(=O)N(CCO)CCO)c1C ; strain or isolate: 20 strains ; value: >200 µg/mL
Clc1ccc(CO/N=C(/Cn2ccnc2)c2ccc(Cl)cc2Cl)c(Cl)c1 ; value: 6.25 µg/mL